# Primary screen of a compound library

Each number is a percent effect as filed. How 0% and 100% were set is not recorded. Most values in the screen are low, and negative values occur. This is part of a subset picked to be rich in strong results. Two or more numbers in one place are separate tests of the same structure; such repeats can differ widely. A dash means the value is not listed here; it may have been measured.

Mtb glucose medium: 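Growth of Mycobacterium tuberculosis over 3 days (7H9 medium with glucose and tyloxapol); the read-out is not stated. Compounds at 50 µM. Higher reads as more growth inhibition (inferred: compounds with an IC50 in retests scored well above the rest). Of about 69,000 compounds tested this way, about 760 (1.1%) reached 50% or more in at least one test.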
Mtb cholesterol medium: 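Phenotypic screen: M. tuberculosis growth, cholesterol and DPPC medium, 4 days; the read-out is not stated. Compounds at 50 µM. The record gives no direction; compounds that gave an IC50 in retests scored well above the rest, so higher reads as more growth inhibition. About 69,000 compounds were tested under these conditions; 0.54% (about 370) showed 50% or more at least once.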

| structure | Mtb glucose medium | Mtb cholesterol medium |
|---|---|---|
| `CN(C)c1ccc(CNC(=O)c2ccc(Cl)cc2F)cc1` | 33.35% & 53.5% | - |
| `CC(C)c1ccc(OCn2ccc(C(=O)N3CCCC3)n2)cc1` | 54.95% | 53.14% |
| `Cn1nnc(NCc2ccc(OCc3ccc(Cl)cc3)cc2)n1` | 14.09% | 10.47% |
| `CCC(CC)C(=O)NCCc1ccn(-c2ccccc2)n1` | -7.766% | -20.56% |
| `CNC(=O)c1sc(C2CCCC2)nc1C` | 10.88% | 2.693% |
| `COc1ncc(CN2CCOC(Cc3cccc4ccccc34)C2)cn1` (stereo not drawn) | - | -25.26% & 58.78% |
| `O=S(=O)(CCN1CCCC1Cn1cccn1)c1ccccc1` (stereo not drawn) | -3.724% | - |
| `CCc1ocnc1C(=O)N1CCC2(CC1)OCC(C)O2` (stereo not drawn) | 10.13% & 8.645% | 22.23% |
| `Cc1cc(CCC(=O)NCc2ncc[nH]2)ccc1Br` | 6.642% | - |
| `CC(=O)Nc1nc(C(=O)Nc2ccc(N3CCCCC3)nc2)cs1` | -14.77% | - |
| `Cc1nc2c(c(NCc3nc4ccccc4s3)n1)CCNCC2` | 69.41% | - |
| `CC(C)(NC(=O)c1ccc(-c2ccc(F)cc2)s1)C(N)=O` | 6.402% & -3.678% | 3.957% |
| `CN(C)CCNC(=O)C1Cc2nc(-c3ccsc3)sc2N1CC1CC1.O=C(O)C(F)(F)F` (stereo not drawn) | 34.32% | - |
| `Cc1cnn(CCNCC(O)c2ccc3c(c2)OCCO3)c1` (stereo not drawn) | -34.93% | -5.602% |
| `COCCn1nc(C(=O)N(C)Cc2cnn(C)c2)ccc1=O` | -13.84% & -11.15% | - |
| `Cc1cccc2c1cnn2CCCNC(=O)C1CC1` | 12.17% | 1.956% |
| `COc1ccc(C[C@H]2CN(c3nnc(C)s3)CC[C@H]2OC)cc1.O=C(O)C(F)(F)F` | 49.83% & 51.45% | 46.78% |
| `Cc1cc(C)nc(N2CCCC(c3cccc(-n4ccnc4)n3)C2)n1` (stereo not drawn) | 54.58% | 55.39% |
| `COC(=O)c1cc(C)nc(N2CCN(Cc3cc(C(C)C)no3)CC2)n1` | -2.917% & 106.3% | - |
| `Cn1ccc(-c2cc(C(=O)N3CCC(C(N)=O)CC3)c3ccccn23)n1` | 27.57% | - |
| `CCN(Cc1ccncc1)c1cc(C2CCNCC2)nc(C)n1` | 0.3071% | - |
| `Cc1nc(CN(C)C2CCN(CCC(=O)N3CCOCC3)C2)no1` (stereo not drawn) | 1.912% | - |
| `CN(C)C(=O)c1ccc(NCCNc2ccc3ccccc3n2)nc1` | -82.42% | -55.66% |
| `CCc1ccc2nc(NCCOCCO)cc(C)c2c1` | 2.09% | - |
| `Cc1ncsc1C(=O)NCCSCc1cccs1` | 28.92% | - |
| `CC(C)C[C@H](N)COc1cccc(F)c1Oc1ccc(Cl)cc1` | 70.56% | 93.35% |
| `O=C(O)C(F)(F)F.[H][C@@]12C[C@@H](c3nc(C4CC4)cs3)O[C@]1([H])CN(C(=O)C1CCOCC1)C2` | -9.981% | - |
| `CCNc1cc2c(nn1)CCN(C(=O)C1Cc3ccccc3O1)C2` (stereo not drawn) | -8.588% | -1.114% |
| `[H][C@@]12CCN(C[C@@H]1CC)[C@@H](CNCc1ccc(OC(F)(F)F)cc1)C2` | 59.35% & 65.97% | 59.7% |
| `Cc1cnn(C2CN(Cc3noc(-c4ccccc4)n3)C2)c1` | - | 33.32% |
| `Fc1cccc(Cc2cncc(C3CCCN3C3CCOCC3)n2)c1` (stereo not drawn) | 5.995% | 1.463% & -21.45% |
| `Cn1cc(C[C@H]2[C@H](O)CCN2Cc2ccc(F)cc2)cn1.O=C(O)C(F)(F)F` | - | -11.09% & -18.16% |
| `CSc1ccc(C(=O)N2CCCC(Nc3ccc(F)cc3)C2)cc1` (stereo not drawn) | - | 25.61% & 2.651% |
| `COc1cc(Oc2ccc(C(F)(F)F)cn2)ccc1CN1CCCC1` | 72.4% | 54.32% |
| `COc1ccccc1OC1CN(C(=O)c2ccc(C(C)=O)s2)C1` | 14.39% | 2.841% |
| `CC(CO)NS(=O)(=O)c1cccc(C(C)C)c1` (stereo not drawn) | 18.84% & 5.916% | - |
| `Cn1ccnc1-c1ccc(NCc2cn3c(n2)SCC3)nn1` | 18.61% & -0.5138% | - |
| `[H][C@@]12CN(C(=O)C3CCOC3)C[C@]1([H])C(=O)N(c1ccccc1)C2` (stereo partly drawn) | -2.618% & -15.33% | - |
| `CCc1nnc(CN(C)c2cc(C)nc3c(C)c(C)nn23)o1` | 19.01% & 7.167% | 0.1354% |
| `Cc1cnn(CC(C)NCC(=O)Nc2ccc(Cl)cn2)c1` (stereo not drawn) | -11.02% & -3.89% | - |
| `CC(C)N(C)S(=O)(=O)N(C)Cc1ccc2c(c1)OCO2` | 23.74% | 7.57% |

The first 4 entries again:

| structure | Mtb glucose medium | Mtb cholesterol medium |
|---|---|---|
| `CN(C)c1ccc(CNC(=O)c2ccc(Cl)cc2F)cc1` | 33.35% & 53.5% | - |
| `CC(C)c1ccc(OCn2ccc(C(=O)N3CCCC3)n2)cc1` | 54.95% | 53.14% |
| `Cn1nnc(NCc2ccc(OCc3ccc(Cl)cc3)cc2)n1` | 14.09% | 10.47% |
| `CCC(CC)C(=O)NCCc1ccn(-c2ccccc2)n1` | -7.766% | -20.56% |

Data taken from ChEMBL document CHEMBL3988442, “University of Dundee, Small-Polar-MMV Screening Library” (2021).